Results of unrelated studies side by side (data: NIAID ChemDB).

ICn is the concentration giving n% inhibition. MIC50, MIC90 and the like: level of inhibition, or share of isolates inhibited. ECn: concentration that inhibits the pathogen or its effect by n%. Inhibition is in % at the dose shown (toxicity tests: loss of growth or viability). Neighbouring rows are from separate reports. MIC bound: limit read from a one-dose screen.

COCc1cc(=O)[nH]c2ccccc12 ; test: culture ; species: Mycobacterium tuberculosis ; strain: H37Rv ; read-out: MIC ; value: >100 µg/mL
COc1ccc2nc3c(C)n(C)ccc-3c2c1 ; test: culture ; species: Mycobacterium tuberculosis ; strain: H37Rv ; method: BACTEC ; read-out: MIC bound ; value: >12.5 µg/mL
O=C(/C=C/c1ccccc1)Nc1nnc(NCCCN2CCCC2=O)s1 ; test: target ; species: Human cytomegalovirus ; target: Polymerase ; read-out: IC50 ; value: <25 µM
Cc1cccc(N2CCN(c3cncc(-c4ccoc4)n3)CC2)c1C ; test: target ; species: Cytomegalovirus ; target: UL97 kinase ; read-out: inhibition ; dose: 10 µM ; value: >15%
CC(Oc1ccc(C(C)(C)C)cc1)C(=O)Nc1ccc(NC(=O)CC(=O)c2ccccc2)cc1 ; test: culture ; species: Mycobacterium tuberculosis ; strain: H37Rv ; read-out: MIC ; value: >100 µg/mL
CC(OC1C(N)C(O)OC(CO)C1O)C(=O)O ; test: culture ; species: Mycobacterium tuberculosis ; strain: H37Rv ; method: BACTEC ; read-out: MIC bound ; value: >12.5 µg/mL
CCCCCCCCCCCNc1nnc(NC(=O)c2ccc(F)cc2F)s1 ; test: target ; species: Human cytomegalovirus ; target: Polymerase ; read-out: IC50 ; value: <25 µM
O=S(=O)([O-])c1cc(S(=O)(=O)[O-])c2cc(NS(=O)(=O)c3ccccc3)ccc2c1 ; test: culture ; species: Adenovirus ; strain: TYPE 3 ; cell line: Human embryonic lung cells ; method: cytopathic effect ; read-out: inhibition ; dose: 10 µg/mL ; value: 10%
CCCCCCCC/C=C/CCCCCCCC(=O)Nc1nnc(NCCCn2ccnc2)s1 ; test: target ; species: Human cytomegalovirus ; target: Polymerase ; read-out: IC50 ; value: >25 µM
CSc1ccc(-c2cncc(N3CCN(c4cccc(Cl)c4)CC3)n2)cc1 ; test: target ; species: Cytomegalovirus ; target: UL97 kinase ; read-out: inhibition ; dose: 1 µM ; value: <50%
Nc1cc(S(=O)(=O)[O-])cc2cc(S(=O)(=O)[O-])ccc12 ; test: culture ; species: Adenovirus ; strain: TYPE 3 ; cell line: Human embryonic lung cells ; method: cytopathic effect ; read-out: inhibition ; dose: 5 µg/mL ; value: 0%
Fc1cc(-c2cncc(N3CCN(c4ccccc4F)CC3)n2)ccc1-c1ccccc1 ; test: target ; species: Cytomegalovirus ; target: UL97 kinase ; read-out: IC50 ; value: <100 µM
C#CC[C@@H](C(=O)N[C@H](/C=C/C(=O)OCC)C[C@@H]1CCNC1=O)n1cccc(NC(=O)c2cc(C)on2)c1=O ; test: culture ; species: Rhinovirus ; strain: Serotype 52 ; cell line: H1-HELA ; method: cytopathic effect / XTT ; read-out: EC50 ; value: 0.007 µM
O=S(=O)([O-])c1ccc2c(O)cc(S(=O)(=O)[O-])cc2c1 ; test: culture ; species: Rhinovirus ; cell line: Human amnion AV3 cells ; method: cytopathic effect ; read-out: inhibition ; dose: 50 µg/mL ; value: 20%
C[C@H](Cc1ccc(O)c(O)c1)[C@@H](C)Cc1ccc(O)c(O)c1 ; test: culture ; species: Candida albicans ; strain: CCC 125-2000 ; method: broth dilution ; read-out: MIC80 ; value: 250 µg/mL
O=C(Nc1c(S(=O)(=O)[O-])cc2cc(S(=O)(=O)[O-])cc(O)c2c1O)c1ccccc1 ; test: culture ; species: Herpes simplex virus ; cell line: Human conjunctiva cells ; method: cytopathic effect ; read-out: inhibition ; dose: 50 µg/mL ; value: 30%
COc1ccc(-c2cncc(N3CCN(c4ccc(C(F)(F)F)cc4)CC3)n2)cc1OC ; test: target ; species: Cytomegalovirus ; target: UL97 kinase ; read-out: IC50 ; value: <100 µM
COC(=O)CCCCCCCCCCOC(=O)Nc1ccccc1 ; test: culture ; species: Mycobacterium tuberculosis ; strain: H37Rv ; read-out: MIC ; value: >100 µg/mL
NCCS(=O)(=O)O ; test: culture ; species: Adenovirus ; strain: TYPE 3 ; cell line: Human embryonic lung cells ; method: cytopathic effect ; read-out: inhibition ; dose: 50 µg/mL ; value: 0%
O=S(=O)(Nc1ccccc1)c1cccc(S(=O)(=O)Nc2ccccc2)c1 ; test: culture ; species: Mycobacterium tuberculosis ; strain: H37Rv ; read-out: MIC ; value: >100 µg/mL
OCc1ccc(-c2cncc(N3CCN(c4ccc(Cl)c(Cl)c4)CC3)n2)cc1 ; test: target ; species: Cytomegalovirus ; target: UL97 kinase ; read-out: inhibition ; dose: 1 µM ; value: <50%
O=Nc1ccc([O-])cc1.[Na+] ; test: culture ; species: Mycobacterium tuberculosis ; strain: H37Rv ; read-out: MIC ; value: >100 µg/mL
O=S(=O)(O)c1cccc2c(O)cccc12 ; test: culture ; species: Adenovirus ; strain: TYPE 3 ; cell line: Human embryonic lung cells ; method: cytopathic effect ; read-out: inhibition ; dose: 50 µg/mL ; value: 0%
CCCCCCCC/C=C/CCCCCCCC(=O)Nc1nnc(NCCC#N)s1 ; test: target ; species: Human cytomegalovirus ; target: Polymerase ; read-out: IC50 ; value: >25 µM
CCCC(N=C(N)N)C(=O)O ; test: culture ; species: Mycobacterium tuberculosis ; strain: H37Rv ; read-out: MIC ; value: >100 µg/mL
Cc1cc(C(N)=S)no1 ; test: culture ; species: Mycobacterium tuberculosis ; method: resazurin ; read-out: MIC bound ; value: >6.25 µg/mL
c1ccc(Oc2ccc(-c3cncc(N4CCN(c5ccncc5)CC4)n3)cc2)cc1 ; test: target ; species: Cytomegalovirus ; target: UL97 kinase ; read-out: inhibition ; dose: 1 µM ; value: <50%
O=S(=O)(Oc1cccc2ccccc12)c1ccc(Br)cc1 ; test: culture ; species: Mycobacterium tuberculosis ; strain: H37Rv ; read-out: MIC ; value: >100 µg/mL
CC1=C(C(=O)Nc2ccccc2)C(c2ccc(N(C)C)cc2)C(C(=O)Nc2ccccc2)=C(C)N1 ; test: culture ; species: Mycobacterium tuberculosis ; strain: H37Rv ; method: resazurin ; read-out: inhibition ; dose: 6.25 µg/mL ; value: -1%
O=C(/C=C/c1ccccc1Cl)Nc1nnc(NCCCn2ccnc2)s1 ; test: target ; species: Human cytomegalovirus ; target: Polymerase ; read-out: IC50 ; value: >25 µM
O=S(CCO)CCO ; test: culture ; species: Mycobacterium tuberculosis ; strain: H37Rv ; read-out: MIC ; value: >100 µg/mL
CC(=O)N[C@H]1[C@H]([C@H](O)[C@H](O)CO)OC(C(=O)O)=C[C@@H]1N=C(N)N ; test: culture ; species: Influenza A virus ; strain: Influenza A/Victoria/3/75 (H3N2) ; cell line: MDCK ; read-out: EC50 ; value: 0.41 µM
CCN(CC)c1ccc(N)c(CCNC(C)=O)c1.Cl ; test: culture ; species: Mycobacterium tuberculosis ; strain: H37Rv ; read-out: MIC ; value: >100 µg/mL
CCOc1ccc2ccccc2c1C(=O)Nc1nnc(NC2CC2)s1 ; test: target ; species: Human cytomegalovirus ; target: Polymerase ; read-out: IC50 ; value: >25 µM
CC(=O)CCCCCCCCCCCCC(C)=O ; test: culture ; species: Mycobacterium tuberculosis ; strain: H37Rv ; read-out: MIC ; value: >100 µg/mL
c1ccc(N2CCN(c3cncc(-c4ccc5ccccc5c4)n3)CC2)cc1 ; test: target ; species: Cytomegalovirus ; target: UL97 kinase ; read-out: IC50 ; value: <10 µM
O=C(O)c1cccnc1C(=O)O ; test: culture ; species: Mycobacterium tuberculosis ; strain: H37Rv ; read-out: MIC ; value: >100 µg/mL
CCO/N=C/c1ccc(OCCC2CCN(c3ccc(C)nn3)CC2)cc1 ; test: culture ; species: Rhinovirus ; strain: 181-CV16 (ICAM-1 receptor group 12) ; cell line: KB ; method: neutral red ; read-out: EC50 ; value: 0.027 µM
CC(=O)Nc1ccccc1-c1ccccc1NC(C)=O ; test: culture ; species: Mycobacterium tuberculosis ; strain: H37Rv ; read-out: MIC ; value: >100 µg/mL
OCc1ccc(-c2cncc(N3CCN(c4ccncc4)CC3)n2)cc1 ; test: target ; species: Cytomegalovirus ; target: UL97 kinase ; read-out: inhibition ; dose: 1 µM ; value: <50%
Cc1ccc(C(=O)c2ccccc2C(=O)O)cc1C(=O)O ; test: culture ; species: Mycobacterium tuberculosis ; strain: H37Rv ; read-out: MIC ; value: 100 µg/mL
O=C(/C=C/c1ccccc1Cl)Nc1nnc(NCc2ccc3c(c2)OCO3)s1 ; test: target ; species: Human cytomegalovirus ; target: Polymerase ; read-out: IC50 ; value: <25 µM
Clc1ccc2c(Cl)ccnc2c1 ; test: culture ; species: Mycobacterium tuberculosis ; strain: H37Rv ; read-out: MIC ; value: >100 µg/mL
O=[N+]([O-])c1ccc(-n2nc3ccc4c(no[n+]4[O-])c3n2)cc1 ; test: culture ; species: Mycobacterium tuberculosis ; strain: H37Rv ; method: resazurin ; read-out: MIC bound ; value: >6.25 µg/mL
COc1cc(Cc2cc(Br)cc(OC)c2O)c(C(=O)O)c(OC)c1 ; test: culture ; species: Mycobacterium tuberculosis ; strain: H37Rv ; read-out: MIC ; value: >100 µg/mL
COC(=O)N1N=C(c2ccccc2)C(C(=O)OC)(C(=O)OC)c2ccccc21 ; test: culture ; species: Mycobacterium tuberculosis ; strain: H37Rv ; method: BACTEC ; read-out: inhibition ; dose: 12.5 µg/mL ; value: -10%
C=CCOC(=O)c1ccccc1O ; test: culture ; species: Mycobacterium tuberculosis ; strain: H37Rv ; read-out: MIC ; value: >100 µg/mL
CC(=O)c1ccc(-c2cncc(N3CCN(c4ccccn4)CC3)n2)cc1 ; test: target ; species: Cytomegalovirus ; target: UL97 kinase ; read-out: inhibition ; dose: 1 µM ; value: <50%

The last 3 rows once more:

{"compound": "COC(=O)N1N=C(c2ccccc2)C(C(=O)OC)(C(=O)OC)c2ccccc21", "test": "culture", "species": "Mycobacterium tuberculosis", "strain": "H37Rv", "method": "BACTEC", "read-out": "inhibition", "dose": "12.5 µg/mL", "value": "-10%"}
{"compound": "C=CCOC(=O)c1ccccc1O", "test": "culture", "species": "Mycobacterium tuberculosis", "strain": "H37Rv", "read-out": "MIC", "value": ">100 µg/mL"}
{"compound": "CC(=O)c1ccc(-c2cncc(N3CCN(c4ccccn4)CC3)n2)cc1", "test": "target", "species": "Cytomegalovirus", "target": "UL97 kinase", "read-out": "inhibition", "dose": "1 µM", "value": "<50%"}